Columns and labels:
[1] = molecular target: T1, pTag9aa-pp65_(489-510) (synthetic peptide: tetanus toxin pTag + …, chimera)
T1 chain: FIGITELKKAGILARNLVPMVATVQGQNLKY

[2] = molecular target: T2, pTag9aa-OVA_(323-339) (synthetic peptide: tetanus toxin pTag + …, chimera)
T2 chain: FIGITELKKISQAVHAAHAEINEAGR

[3] = molecular target: T3, pTag9aa-E7_(44-62) (synthetic peptide: tetanus toxin pTag + …, chimera)
T3 chain: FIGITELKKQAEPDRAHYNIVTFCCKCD

[4] = molecular target: T4, pTag9aa-gp100_(20-39) (synthetic peptide: tetanus toxin pTag + …, chimera)
T4 chain: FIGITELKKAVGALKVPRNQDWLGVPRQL

[5] = molecular target: T5, pTag_(9aa-)KRAS_(G12V) peptide (synthetic peptide: tetanus toxin pTag + …, chimera)
T5 chain: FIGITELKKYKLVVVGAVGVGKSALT

[6] = molecular target: T6, pTag_(9aa-)KRAS_(G12D) peptide (synthetic peptide: tetanus toxin pTag + …, chimera)
T6 chain: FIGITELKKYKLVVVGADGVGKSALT

Measured: binding result

B1: BiA9*2_HF (antibody, V domains shown)
VH: QVQLVQSGAEVKKPGASVKVSCKASGFNIKDFNIHWVRQAPGQGLEWIGRIDPENGDAEYVPKFQGRVTMTRDTSTSTVYMELSSLRSEDTAVYYCTTGSYDLDVEYWGQGTLVTVSS
VL: DIQMTQSPSSLSASVGDRVTITCHASQNINVWLSWYQQKPGKAPKLLIYKASTLHTGVPSRFSGSGSGTDFTLTISSLQPEDFATYYCQQGQSYPLTFGQGTKLEIK
binds: all assays above
